Experimental data: PubChem BioAssay AID602140 (NMMLSC, 2011)
The list shows a part of the results, in another mix than the full data. Calls of active or inactive are those of the source. How the calls were made is not given here.

System: Botulinum neurotoxin type F light chain protease (Clostridium botulinum)
Assay: BoNT/F light chain protease inhibitors, confirmation, biochemical, flow cytometry, cherry pick 1 (AID 602140)
Conditions: multiplex microsphere protease cleavage assay, at 10 µM, active compounds read high

## CN1CCC(Nc2ccc(F)c(Cl)c2)CC1
  inhibition: inactive: -3.9%
